Measured values from several laboratories, pooled; numbers as filed in NIAID ChemDB.

All rows: toxicity to cultured cells; cell line: PBMC; read-out: CC50

An empty or dashed field is not shown. CCn: concentration that lowers growth or viability of the cells by n%. a–b is a range or a potency band. Lines come from different laboratories, so protocols vary.

SMILES,read by,result
O=c1[nH]c(=O)n([C@@H]2O[C@@H](CO)CC2(F)F)cc1I,-,>100 µM
CC(C)c1nnc2c3ccccc3c(N3CCc4ccc(N)cc4C3)nn12,-,22.4 µM
Nc1nc(=O)n([C@@H]2O[C@@H](CO)[C@H](O)C2(F)F)cc1F,-,>100 µM
N#C[C@@H]1[C@H](O)[C@@H](n2ccc(N)nc2=O)O[C@H]1CO,-,>100 µM
CN(C)CCSc1nc(-c2cccs2)cc(-c2cccn2C)n1,-,100 µM
Cc1c(Cl)ccc2cc(/C=C/c3cccc4c3OCCO4)c(Cl)nc12,MTT,87.09 µM
CC(Cc1nc(-c2ccc(O)c(O)c2)cs1)n1cc(Cl)cn1,trypan blue,30 µM
N#Cc1ccc2c(c1)CN(c1nn3c(C4CC4)nnc3c3ccccc13)CC2,-,4.79 µM
Nc1ncnc2c1ncn2CC(F)(F)C(F)(F)C(F)(F)CO,-,>100 µM
[N-]=[N+]=N[C@H]1C[C@H](CO)O[C@@H]1n1cc(F)c(N)nc1=O,trypan blue,>100 µM
Cc1c(-c2cccc(SCCN(C)C)c2)ncnc1-c1cccc(SCCN(C)C)c1,-,10 µM
CCc1c(Cc2ccccc2)nc(SCSC)[nH]c1=O,-,>100 µM
Nc1nc2c(ncn2[C@@H]2O[C@@H](CO)[C@H](O)C2(F)F)c(=O)[nH]1,-,>100 µM
CCN(CC)c1ccc(/C=N/NC(=O)Cn2nc(-c3ccccc3)c3c2-c2ccccc2S(=O)(=O)N3C)cc1,-,>100 µM
CC(C)OC(=O)[C@H](C)NP(=O)(OCC(F)(F)C(F)(F)C(F)(F)Cn1cnc2c(=O)[nH]c(N)nc21)Oc1ccccc1,-,>100 µM
Cc1cn([C@H]2O[C@@H](CO)[C@H](C#N)[C@@H]2O)c(=O)[nH]c1=O,-,>100 µM
COc1ccc(/C=N/NC(=O)Cn2nc(-c3ccccc3)c3c2-c2ccccc2S(=O)(=O)N3C)c(OC)c1,-,>100 µM
Nc1ccn([C@H]2O[C@@H](CO)[C@H](O)C2(F)F)c(=O)n1,-,>100 µM
O=C(O)[C@H]1O[C@@H](Oc2ccc(/C=C/c3cc(O)cc(O)c3)cc2)[C@H](O)[C@@H](O)[C@@H]1O,MTT,>300 µM
Nc1ncnc2c1ncn2[C@@H]1O[C@@H](CO)[C@H](O)C1(F)F,-,>100 µM
Cc1c(-c2ccc(SCCN(C)C)cc2)ncnc1-c1ccc(SCCN(C)C)cc1,-,100 µM
OC[C@@H]1C[C@H](F)[C@H](n2cnc3c(Cl)ncnc32)O1,-,>80 µM
C/C(=N\NC(=O)c1ccc([N+](=O)[O-])cc1)c1cccc(/C(C)=N/NC(=O)c2ccc([N+](=O)[O-])cc2)n1,MTT,>100 µM
OC[C@@H]1C[C@H](F)[C@H](n2cnc3c(F)ncnc32)O1,-,>80 µM
CN(C)CCSc1nccc(-c2cccs2)n1,-,100 µM
OCCN(CCO)CCOc1nc(-c2cccs2)cc(-c2cccs2)n1,-,100 µM
Cc1cn([C@H]2O[C@@H](CO)[C@H](O[Si](C)(C)C(C)(C)C)C2(F)F)c(=O)[nH]c1=O,-,>100 µM
CN(C)CCSc1cccc(-c2ccnc(SCCN(C)C)n2)c1,-,100 µM
Cc1c(Cl)ccc2cc(/C=C/C(=O)c3ccc(Br)cc3)c(Cl)nc12,MTT,32.09 µM
CCOc1ccc(C2(C#N)CC(=O)N2Cc2ccccc2)cc1,absorbance,>100 µM
CCNC(=O)NC(=O)C(C)OC(=O)c1c2c(nc3ccccc13)/C(=C\c1cccc(OC)c1OC)CC2,-,>100 µM
Nc1nc(=O)n([C@H]2O[C@@H](CO)CC2(F)F)cc1F,-,>100 µM
CN(C)CCSc1nccc(-c2ccc(-c3ccnc(SCCN(C)C)n3)s2)n1,-,10 µM
N#C[C@@H]1[C@H](O)[C@@H](n2ccc(=O)[nH]c2=O)O[C@H]1CO,-,>100 µM
CSCSc1nc(Cc2ccccc2)c(C)c(=O)[nH]1,-,>100 µM
Cc1cnc(SCCN(C)C)nc1-c1ccc(-c2nc(SCCN(C)C)ncc2C)s1,-,10 µM
CN(C)CCNc1nc(-c2cccs2)cc(-c2cccs2)n1,-,10 µM
O=c1[nH]c(=O)n([C@@H]2O[C@@H](CO)[C@H](O)C2(F)F)cc1I,-,>100 µM
Cc1cn([C@@H]2O[C@@H](CO)[C@H](O[Si](C)(C)C(C)(C)C)C2(F)F)c(=O)[nH]c1=O,-,>100 µM
CCCCC#CCSc1ccccc1O,MTT,3 µM
CN(C)CCSc1ccc(-c2ccc(-c3ccc(SCCN(C)C)cc3)nn2)cc1,-,10 µM
CN(C)c1ncnc2c1ncn2[C@@H]1O[C@H](CO)C[C@@H]1F,-,>80 µM
Cc1ccc(-c2cccc(-c3ccc(CNCCN(C)C)cc3)n2)cc1,-,10 µM
COC(=O)[C@H](C)NP(=O)(OC[C@@H]1OC[C@H](n2cc(C)c(=O)[nH]c2=O)O1)Oc1ccc(Cl)cc1,MTT,78.4 µM
CN(C)Cc1ccc(-c2cccc(-c3ccc(CN(C)C)cc3)n2)cc1,-,100 µM
COC(=O)[C@@H](C)NP(=O)(OC[C@@H]1OC[C@H](n2cc(C)c(=O)[nH]c2=O)O1)Oc1ccccc1,MTT,>100 µM
O=[N+]([O-])c1ccc2c(c1)CN(c1nn3c(C4CC4)nnc3c3ccccc13)CC2,-,23.8–29.4 µM
CN(C)CCNc1c2c(nc3ccccc13)-c1ccccc1CC2,-,100 µM
Cc1cn([C@H]2CO[C@@H](CO[P@]3(=O)OCC[C@H](c4cccc(Cl)c4)O3)O2)c(=O)[nH]c1=O,MTT,>100 µM
Cc1cc(/C=C/c2cc3ccc(Cl)c(C)c3nc2Cl)c(C)s1,MTT,87 µM
COC(=O)CNP(=O)(OC[C@@H]1OC[C@H](n2cc(C)c(=O)[nH]c2=O)O1)Oc1ccccc1,MTT,>100 µM
NNc1ncnc2c1ncn2[C@@H]1O[C@H](CO)C[C@@H]1F,-,>80 µM
CC(C)(C)OC(=O)Nc1cccc(CCNC(=O)NCc2ccc(Cl)c(Cl)c2)n1,-,28 µM
Cc1ccc(N2C(=O)CCC2(C#N)c2ccc(OC(C)C)cc2)cc1,absorbance,>100 µM
COc1ccc2nc(Cl)c(/C=C/C(=O)c3ccc(I)s3)cc2c1,MTS,23.7 µM
CC(C)c1ccccc1NC(=O)NCCCc1ccc2c(n1)NCCC2,-,15.1 µM
Cc1c(Cl)ccc2cc(/C=C/c3sccc3Br)c(Cl)nc12,MTT,47.9 µM
CN1CCN(CCSc2nnc(-c3cc4ccccc4s3)c3ccccc23)CC1,-,100 µM
CN1CCN(c2cc(-c3cccs3)nc3ccccc23)CC1,-,100 µM
Cc1ccc(N2C(=O)CCC2(C#N)c2ccc(OCc3c(Cl)cccc3Cl)cc2)cc1,absorbance,14.1 µM
COC(=O)[C@H](C)NP(=O)(OC[C@@H]1OC[C@H](n2cc(C)c(=O)[nH]c2=O)O1)Oc1ccc(F)cc1,MTT,>100 µM
Nc1ncnc2c1ncn2[C@H]1O[C@@H](CO)[C@H](O)C1(F)F,-,>100 µM
Nc1nc(=O)n([C@H]2O[C@@H](CO)[C@H](O)C2(F)F)cc1Cl,-,>100 µM
O=C(NCCc1ccc2c(n1)NCCC2)Nc1cc(F)cc(C(F)(F)F)c1,-,6 µM
CC(C)(C)OC(=O)N1[C@H](CO)CC(F)(F)[C@@H]1n1cc(F)c(=O)[nH]c1=O,-,28.2 µM
O=C(NCCc1ccccc1)C1=Cc2ccncc2CC1,-,74.7 µg/mL
Nc1nccc2c1ncn2[C@@H]1C[C@H](CO)[C@@H](O)[C@H]1O,-,9.99 µM
CN1CCN(c2c3c(nc4ccccc24)-c2ccsc2CC3)CC1,-,90 µM
CN1CCN(CCSc2nccc(-c3ccc(-c4cccs4)s3)n2)CC1,-,100 µM
O=c1ccn([C@H]2O[C@@H](CO)CC2(F)F)c(=O)[nH]1,-,>100 µM
CC(C)OC(=O)[C@H](C)NP(=O)(OCC(F)(F)C(F)(F)C(F)(F)Cn1ccc(N)nc1=O)Oc1ccccc1,-,>100 µM
O=c1[nH]cnc2c1ncn2[C@H]1O[C@@H](CO)[C@H](O)C1(F)F,-,>100 µM
c1ccc(-c2nnc3c4ccccc4c(N4CCc5ccccc5C4)nn23)cc1,-,>100 µM
CC(C)Oc1ccc(C2(C#N)CCC(=O)N2c2ccccc2)cc1,absorbance,95.8 µM
O=C(NCCc1ccc2c(n1)NCCC2)Oc1ccc(Cl)cc1,-,11 µM
Cc1nnc2c3ccccc3c(N3CCc4c(F)cccc4C3)nn12,-,54.2 µM
Cc1ccc2nc(Cl)c(/C=C/C(=O)c3ccc[nH]3)cc2c1,MTS,19.9 µM
Nc1nccc2c1ncn2[C@@H]1C=C(CO)[C@@H](O)[C@H]1O,-,10 µM
N#C[C@@H]1[C@H](O)[C@@H](n2cnc3c(=O)[nH]cnc32)O[C@H]1CO,-,>100 µM
CC(C)Oc1ccccc1NC(=O)Nc1ccc2cnccc2n1,-,>100 µg/mL
CC(C)OC(=O)[C@H](C)NP(=O)(OCC(F)(F)C(F)(F)C(F)(F)Cn1c(=O)cc[nH]c1=O)Oc1ccccc1,-,>100 µM
Cc1cn([C@H]2CO[C@@H](COP(=O)(N[C@@H](C)C(=O)OCc3ccccc3)Oc3ccc(Br)cc3)O2)c(=O)[nH]c1=O,MTT,>100 µM
Cc1cn([C@@H]2O[C@@H](CO)[C@H](O)C2(F)F)c(=O)[nH]c1=O,-,>100 µM
COc1ccc(NC(=O)NCCc2ccc3c(n2)NCCC3)c(OC)c1,-,2 µM
CN1c2c(-c3ccccc3)nn(CC(=O)N/N=C/c3ccc(Cl)cc3)c2-c2ccccc2S1(=O)=O,-,>100 µM
CN(C)CCNc1nc(-c2cccs2)cc(-c2cc3ccccc3s2)n1,-,10 µM
CCOC(=O)CCNC(=O)NCCc1ccc2c(n1)NCCC2,-,50 µM
CC(=O)Oc1ccccc1C(=O)O,MTT,8977 µM
CC1(C)CCC2=C(O1)c1ccccc1C(=O)C2=O,-,~2.5 µM
CC(C)(C)OC(=O)N1[C@H](CO)CC(F)(F)[C@@H]1n1ccc(=O)[nH]c1=O,-,81.4 µM
Cc1ccc2nc(Cl)c(/C=C/C(=O)c3sccc3Br)cc2c1,MTS,16.1 µM
CN(C)CCSc1nc(-c2cccs2)cc(-c2cccn2C)n1,-,100 µM
Cc1cn(CC(F)(F)C(F)(F)C(F)(F)CO)c(=O)[nH]c1=O,-,>100 µM
Cc1ccc2nc(Cl)c(/C=C/C(=O)c3sccc3Cl)cc2c1,MTS,15.8 µM
CN1c2c(-c3ccccc3)nn(CC(=O)N/N=C/c3cccc([N+](=O)[O-])c3)c2-c2ccccc2S1(=O)=O,-,>100 µM
CCCCC#CCS(=O)(=O)c1ccccc1OC(C)=O,MTT,345 µM

13 of the rows above, restated:

| SMILES | read by | result |
|---|---|---|
| Nc1ncnc2c1ncn2CC(F)(F)C(F)(F)C(F)(F)CO | - | >100 µM |
| Cc1cn([C@H]2O[C@@H](CO)[C@H](C#N)[C@@H]2O)c(=O)[nH]c1=O | - | >100 µM |
| CN(C)CCSc1nccc(-c2ccc(-c3ccnc(SCCN(C)C)n3)s2)n1 | - | 10 µM |
| NNc1ncnc2c1ncn2[C@@H]1O[C@H](CO)C[C@@H]1F | - | >80 µM |
| Nc1ncnc2c1ncn2[C@@H]1O[C@@H](CO)[C@H](O)C1(F)F | - | >100 µM |
| CCCCC#CCS(=O)(=O)c1ccccc1OC(C)=O | MTT | 345 µM |
| O=[N+]([O-])c1ccc2c(c1)CN(c1nn3c(C4CC4)nnc3c3ccccc13)CC2 | - | 23.8–29.4 µM |
| O=C(NCCc1ccc2c(n1)NCCC2)Oc1ccc(Cl)cc1 | - | 11 µM |
| Cc1nnc2c3ccccc3c(N3CCc4c(F)cccc4C3)nn12 | - | 54.2 µM |
| Cc1ccc(-c2cccc(-c3ccc(CNCCN(C)C)cc3)n2)cc1 | - | 10 µM |
| CN(C)CCSc1nccc(-c2cccs2)n1 | - | 100 µM |
| [N-]=[N+]=N[C@H]1C[C@H](CO)O[C@@H]1n1cc(F)c(N)nc1=O | trypan blue | >100 µM |
| OC[C@@H]1C[C@H](F)[C@H](n2cnc3c(F)ncnc32)O1 | - | >80 µM |